Source: US5968513A (priority 1996, dated 1999)

System: HIV-1

Pregnyl: commercial hCG preparation Pregnyl, Organon
Viral Load Rx (post treatment with hCG), TCID (patient PH-DP, 1 mo, TCID assay, PreRx 100): 1

Human Chorionic Gonadotropin [hCG]
effectiveness of weekly hCG therapy in humans (at least 15,000 I.U. and up to 45,000 I.U. weekly): effective
Weight gain (individual patients): 0 kg
decrease in viral load (individual patients (PH-VE NASBA; PG-1; PH-DP TCID)): 1.5 log and 1 log and 2 log
Viral Load Rx (post treatment with hCG), Roche Amplicor (individual patients, Roche Amplicor, lower detection limit 200 copies): 4,900,000 copies
rise of CD4^+ T cell levels (patient PG-4, no other antiviral therapy, from 47 mm^3 to 424 mm^3): 10 fold
CD4^+ T cells after Ritonavir added to hCG (patient PH-SPBE, Ritonavir added at 22 weeks): over 300 mm^3

hCG (APL): commercially available partially purified hCG preparation APL, Wyeth Ayerst
toxicity / tolerability in patients (hCG therapy of HIV-infected patients): exacerbation of preexisting cholestasis

Several values for one entry are separate records, joined by “and”; a condition that tells them apart may be missing. Identical values can stand only once.
